# Laboratory results from patent US20070118934A1.
# Molecular target: protective antigen (PA) of Bacillus anthracis (Bacillus anthracis) (UniProt P13423)
# Assay: cell-based or functional assay
Substance,"molar ratio of antitoxin to PA at the IC50, assay Jul. 27, 2005 (molar ratio antitoxin:PA)","molar ratio of antitoxin to PA at the IC50, assay Jul. 28, 2005 (molar ratio antitoxin:PA)","molar ratio of antitoxin to PA at the IC50, assay Jul. 20, 2005 (molar ratio antitoxin:PA)"
CMG2-IgG V1 co-expressed with CMG2-kappa (V1/K) (from UniProt P58335 34-218; P58335 34-232) (Fc fusion),0.25,,
CMG2-IgG V3 co-expressed with CMG2-kappa (V3/K) (from UniProt P58335 34-218; P58335 34-232) (Fc fusion),0.18,,
CMG2-IgG variant 1 (V1) (from UniProt P58335 34-218) (Fc fusion),,1.8,
CMG2-IgG variant 2b (V2b) (from UniProt P58335 34-218) (Fc fusion),,0.31,0.45
CMG2-IgG variant 2a (V2a) (from UniProt P58335 34-232) (Fc fusion),,0.72,
CMG2-IgG variant 3 (V3) (from UniProt P58335 34-218) (Fc fusion),,0.91,
Original CMG2-IgG (amino acids 34-232 of human CMG2 fused to the human IgG1 constant region) (from UniProt P58335 34-232) (Fc fusion),,2,2.16
